Reference: PubChem BioAssay AID624099 (ICCB-Longwood, 2012)
Purpose: 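Knock-downs relieving repression by E2 of an HPV18 LCR luciferase reporter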 (primary screen). Cell system: human C33A cervical carcinoma cells (HPV-negative) stably expressing BPV1 E2 and an HPV18 LCR luciferase reporter. Reagent: siRNA pool against human genes, 40 nM. Timing: 72 h. Measured: 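Per-well luciferase luminescence, z-scored on each plate against the plate mean and SD with control wells left out, then averaged across three replicate plates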. Reading the numbers: mean z-score and z-score: higher = stronger reporter signal, weaker E2 silencing. Call rule: 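Mean z ≥ 2 together with z ≥ 2 in two or more of the three replicates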.
Shown is a random part of about 21,000 deposited reagents. 497 of all reagents (2.4%) were called active. 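Higher z means weaker E2 silencing; only reporter increases were scored, and knock-downs that hurt cell survival may mask genuine repressor factors.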

For PDGFRB (platelet derived growth factor receptor beta) [SID56478541], how do the results read?
mean z-score: 0.41; z-score, replicate A: 0.36; z-score, replicate B: 0.35; z-score, replicate C: 0.53; Outcome: inactive

What did the screen give for KLHL35 (kelch like family member 35) [SID134322175]?
mean z-score: -0.42; z-score, replicate A: -0.31; z-score, replicate B: -0.34; z-score, replicate C: -0.6; Outcome: inactive

What is on record for LOC388351 (retired record) [SID134328818]?
mean z-score: 1.23; z-score, replicate A: 1.47; z-score, replicate B: 1.42; z-score, replicate C: 0.79; Outcome: inactive

For ZBTB3 (zinc finger and BTB domain containing 3) [SID134320472], what was measured?
mean z-score: 0.06; z-score, replicate A: 0.08; z-score, replicate B: -0.22; z-score, replicate C: 0.33; Outcome: inactive

How did the screen score FAM169A (family with sequence similarity 169 member A) [SID134326089]?
mean z-score: 0.41; z-score, replicate A: 0.62; z-score, replicate B: 0.25; z-score, replicate C: 0.36; Outcome: inactive

What is on record for ACP3 (acid phosphatase 3) [SID134314027]?
mean z-score: -0.47; z-score, replicate A: -0.43; z-score, replicate B: -0.62; z-score, replicate C: -0.35; Outcome: inactive

What did the screen give for PTPRN2 (protein tyrosine phosphatase receptor type N2) [SID134313001]?
mean z-score: -0.79; z-score, replicate A: -0.83; z-score, replicate B: -0.79; z-score, replicate C: -0.75; Outcome: inactive

For ELAVL1 (ELAV like RNA binding protein 1) [SID134310072], how do the results read?
mean z-score: -0.6; z-score, replicate A: -0.18; z-score, replicate B: -0.92; z-score, replicate C: -0.7; Outcome: inactive

With PHETA2 (PH domain containing endocytic trafficking adaptor 2) [SID134326112], what does the deposit list?
mean z-score: -0.64; z-score, replicate A: -0.7; z-score, replicate B: -0.48; z-score, replicate C: -0.73; Outcome: inactive

For MAPK13 (mitogen-activated protein kinase 13) [SID56478704], what was measured?
mean z-score: -1.51; z-score, replicate A: -1.9; z-score, replicate B: -1.38; z-score, replicate C: -1.24; Outcome: inactive

What is on record for FANCM (FA complementation group M) [SID134325225]?
mean z-score: 0.56; z-score, replicate A: -0.17; z-score, replicate B: 2.29; z-score, replicate C: -0.45; Outcome: inactive

What did the screen give for UEVLD (UEV and lactate/malate dehyrogenase domains) [SID134313364]?
mean z-score: 3.18; z-score, replicate A: 2.36; z-score, replicate B: 3.92; z-score, replicate C: 3.25; Outcome: active

How did the screen score ALYREF (Aly/REF export factor) [SID134316375]?
mean z-score: -1.8; z-score, replicate A: -1.72; z-score, replicate B: -1.76; z-score, replicate C: -1.92; Outcome: inactive

For SIX4 (SIX homeobox 4) [SID134323994], what does the deposit list?
mean z-score: 0.04; z-score, replicate A: -0.19; z-score, replicate B: 0.12; z-score, replicate C: 0.19; Outcome: inactive

What is on record for GPR78 (G protein-coupled receptor 78) [SID134311038]?
mean z-score: -0.77; z-score, replicate A: -0.82; z-score, replicate B: -0.75; z-score, replicate C: -0.74; Outcome: inactive

Which result is listed for CGB3 (chorionic gonadotropin subunit beta 3) [SID134315522]?
mean z-score: -0.55; z-score, replicate A: -0.42; z-score, replicate B: -0.66; z-score, replicate C: -0.55; Outcome: inactive

4 neighbouring records from above, quoted:
UEVLD (UEV and lactate/malate dehyrogenase domains) [SID134313364] — mean z-score: 3.18; z-score, replicate A: 2.36; z-score, replicate B: 3.92; z-score, replicate C: 3.25; Outcome: active
ALYREF (Aly/REF export factor) [SID134316375] — mean z-score: -1.8; z-score, replicate A: -1.72; z-score, replicate B: -1.76; z-score, replicate C: -1.92; Outcome: inactive
SIX4 (SIX homeobox 4) [SID134323994] — mean z-score: 0.04; z-score, replicate A: -0.19; z-score, replicate B: 0.12; z-score, replicate C: 0.19; Outcome: inactive
GPR78 (G protein-coupled receptor 78) [SID134311038] — mean z-score: -0.77; z-score, replicate A: -0.82; z-score, replicate B: -0.75; z-score, replicate C: -0.74; Outcome: inactive

Next reagents:
Which result is listed for ZSCAN25 (zinc finger and SCAN domain containing 25) [SID134321322]?
mean z-score: -1.05; z-score, replicate A: -1.16; z-score, replicate B: -1.19; z-score, replicate C: -0.81; Outcome: inactive

What is on record for LOC390020 (retired record) [SID134328203]?
mean z-score: -0.42; z-score, replicate A: -0.57; z-score, replicate B: -0.22; z-score, replicate C: -0.48; Outcome: inactive

With MX1 (MX dynamin like GTPase 1) [SID134316054], what does the deposit list?
mean z-score: -0.27; z-score, replicate A: -0.52; z-score, replicate B: -0.35; z-score, replicate C: 0.04; Outcome: inactive

What did the screen give for TAP2 (transporter 2, ATP binding cassette subfamily B member) [SID134312680]?
mean z-score: 0.05; z-score, replicate A: -0.04; z-score, replicate B: 0.11; z-score, replicate C: 0.08; Outcome: inactive

With NAALADL1 (N-acetylated alpha-linked acidic dipeptidase like 1) [SID134311400], how do the results read?
mean z-score: -0.44; z-score, replicate A: -0.33; z-score, replicate B: -0.24; z-score, replicate C: -0.74; Outcome: inactive

How did the screen score PLK3 (polo like kinase 3) [SID56478615]?
mean z-score: 0.07; z-score, replicate A: 0.22; z-score, replicate B: 0.08; z-score, replicate C: -0.07; Outcome: inactive

What did the screen give for ANKRD30B (ankyrin repeat domain 30B) [SID134328853]?
mean z-score: 1.35; z-score, replicate A: 1.5; z-score, replicate B: 1.29; z-score, replicate C: 1.26; Outcome: inactive

For DCST2 (DC-STAMP domain containing 2) [SID134319965], what was measured?
mean z-score: 0.39; z-score, replicate A: 0.43; z-score, replicate B: 0.37; z-score, replicate C: 0.36; Outcome: inactive

Which result is listed for SRPRB (SRP receptor subunit beta) [SID134317862]?
mean z-score: 0.25; z-score, replicate A: 0.89; z-score, replicate B: 0.16; z-score, replicate C: -0.28; Outcome: inactive

Which result is listed for PLCXD3 [SID134326082]?
mean z-score: 0.36; z-score, replicate A: 0.56; z-score, replicate B: 0.41; z-score, replicate C: 0.12; Outcome: inactive

How did the screen score WWP1 (WW domain containing E3 ubiquitin protein ligase 1) [SID134310337]?
mean z-score: -0.29; z-score, replicate A: -0.2; z-score, replicate B: -0.45; z-score, replicate C: -0.21; Outcome: inactive
